The data set is described as follows: Langmuir-Blodgett compression isotherms of model membrane with peptides. Further details: species or system Zymomonas mobilis. As to conditions: Z. mobilis phospholipid model membrane + peptide, 30 ± 1 °C.

Where no end group is shown, it is not given here.

With KKIAKKFWKKFWKFWKIFKK [R10], the “Mma (limiting area per molecule, Aπ→0)” value (extrapolated from linear part of π-A isotherm (25–40 mN/m), membranes alone 70.6) is given as 81.3 Å/molecule. The “π Collapse” value (membranes alone 46.4) was determined as 44.2 mN/m.

Source of the values: PMC11118514, “Eminent Antimicrobial Peptide Resistance in Zymomonas mobilis: A Novel Advantage of Intrinsically Uncoupled Energetics” (Antibiotics, 2024).
